These results are taken from patent US20140142352A1, “BUTANOL PURIFICATION” (BUTAMAX ADVANCED BIOFUELS LLC, priority 2012, published 2014).

In data set [1] the test system is anaerobic inoculum. Briefly: Biological Methane Potential (BMP) test.
In data set [2] the test system is anaerobic inoculum. Briefly: Acetate Toxicity Assays (ATA). It counts as cell-based. As to the method:
For the BMP tests, iBA provided the sole source of substrate over a range of conditions. Feed controls were prepared at organic loadings that spanned the lower and upper range of loadings used in the ATA and BMP tests, and gas production was monitored. Samples were prepared in triplicate with the seed concentration for all test bottles being 2000 mg/L. The feed control and ATA biodegradable synthetic feed composition contained 4000 mg/L acetate and 2000 mg/L propionate. The inorganic nutrient media used was similar to media presented in Table 5.1 of […], Anaerobic Biotechnology for Industrial […], Vanderbilt University, […], Nashville, p 115 (1996). The bottles were maintained at a temperature of 35° C.

Each structure is given as a SMILES string.

Regarding `CC(C)C(=O)O` [Isobutyric Acid, isobutyric acid], the COD removed in the data set with anaerobic inoculum [1] (BMP 550 ppm iBA) is 92%; in the data set with anaerobic inoculum [1] (BMP 1100 ppm iBA) it was 97%; in the data set on anaerobic inoculum [1] (BMP 1650 ppm iBA) it was 98%; in the data set on anaerobic inoculum [1] (BMP 2200 ppm iBA), 98%; in the data set on anaerobic inoculum [2] (ATA-syn + 550 ppm iBA) it was 98%; in the data set on anaerobic inoculum [2] (ATA-syn + 825 ppm iBA), 97%. Moreover, the COD removed in the data set on anaerobic inoculum [2] (ATA-syn + 1100 ppm iBA) was determined as 98%. Further, the TOC removed in the data set with anaerobic inoculum [1] (BMP 550 ppm iBA) is given as 85%; with anaerobic inoculum [1] (BMP 1100 ppm iBA) it was 97%; in the data set with anaerobic inoculum [1] (BMP 1650 ppm iBA), 92%; in the data set on anaerobic inoculum [1] (BMP 2200 ppm iBA) it was 97%; in the data set on anaerobic inoculum [2] (ATA-syn + 550 ppm iBA), 94%; with anaerobic inoculum [2] (ATA-syn + 825 ppm iBA), 95%. In addition, in the data set with anaerobic inoculum [2] (ATA-syn + 1100 ppm iBA), the TOC removed was 96%. In addition, in the data set with anaerobic inoculum [1] (BMP tests), the anaerobic biodegradability entry was “biodegradable”.
